# Measured values as given in PubChem BioAssay AID651610 (Broad Institute, 2012).
# The list shows a part of the results, in another mix than the full data. Active and inactive are the calls of the source.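 How the source made its calls: active means mean replicate inhibition score of at least 50 and every replicate individually at or above 50; inconclusive means only one of the two criteria met; inactive means mean below 50 and not all replicates reaching 50.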
# Experiment: blockers of JRFL envelope-mediated fusion – HeLa-JRFL effector, CEM21 target cells, luciferase, primary screen (AID 651610);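 further: 0% = plate neutral controls and 100% = maraviroc near 300 nM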
# Conditions: HeLa-JRFL Env/CEM21 cell fusion, at 12.3 µM, hits give high values
row,Structure (SMILES),inhibition
1,O=P(Nc1ccccn1)(c1ccc(Br)cc1)c1ccc(Br)cc1,inactive: 25.6%
2,COc1ccc(N)c([N+](=O)[O-])c1[N+](=O)[O-],inactive: -10.8%
3,COc1ccc(OP(C)(=O)Nc2cccc(Br)c2)cc1 (centres undefined),inactive: -87.3%
4,O=C(OC1CN2CCC1CC2)c1cccc(Cl)c1 (centres undefined),inactive: -75.4%
5,C(Cc1nn[nH]n1)Cc1nn[nH]n1,inactive: 23.8%
6,Nc1ccc([As](=O)(O)c2ccc([N+](=O)[O-])cc2)cc1,inactive: -12.6%
7,Cc1c(C(c2ccc3c(c2)OCO3)c2c(C)n(C)n(-c3ccccc3)c2=O)c(=O)n(-c2ccccc2)n1C.O=[N+]([O-])c1cc([N+](=O)[O-])c(O)c([N+](=O)[O-])c1,inactive: -4.18%
8,C/C(N)=N\P(=O)(OCc1ccccc1)OCc1ccccc1,inactive: 17.7%
9,Cc1cc(-c2cccc3ccccc23)c(C)cn1.O=[N+]([O-])c1cc([N+](=O)[O-])c(O)c([N+](=O)[O-])c1,inactive: -10.8%
10,O=[N+]([O-])c1cc([N+](=O)[O-])c(NCC2CCS(=O)(=O)C2)c([N+](=O)[O-])c1 (centres undefined),inactive: 2.35%
11,O=[As](O)(c1ccccc1)c1ccc(O)cc1,inactive: -6.55%
12,O=[N+]([O-])c1ccc(OP2(=O)COCCO2)cc1 (centres undefined),inactive: -6.04%
13,CC(=O)NC(SC(=S)N(C)C)C(Cl)(Cl)Cl (centres undefined),inactive: -19.4%
14,O=[N+]([O-])c1ncn(CCn2cnc([N+](=O)[O-])n2)n1,inactive: -0.856%
15,c1nnnn1CCn1cnnn1,inactive: -140%
16,CCOP(C)(=S)SCC(=O)NC(C)(CC)C(=O)O (centres undefined),inactive: 2.86%
17,CC(C)C(=O)NC(Sc1ccccc1)C(Cl)(Cl)Cl (centres undefined),inactive: -119%
18,CP(=O)(Nc1ccc(SC(F)(F)F)cc1)Oc1ccc(F)cc1 (centres undefined),inactive: 14.2%
19,O=[N+]([O-])c1cc([N+](=O)[O-])c(C(F)(F)F)c([N+](=O)[O-])c1O,inactive: -8.15%
20,CC(C)(C)C(=O)NC(Sc1ncccn1)C(Cl)(Cl)Cl (centres undefined),inactive: 3.95%
21,Clc1n[nH]nc1-c1nn[nH][15n]1,inactive: -133%
22,O=P1(N(CCCl)CCCl)NCCC(C(F)(F)F)O1 (centres undefined),inactive: -24.7%
23,CN(Cc1cccnc1)C(=O)COc1ccc(Cl)c(Cl)c1.O=[N+]([O-])c1cc([N+](=O)[O-])c(O)c([N+](=O)[O-])c1,inactive: -3.47%
24,O=[N+]([O-])c1cc([N+](=O)[O-])c(-n2nnc3ccccc32)c([N+](=O)[O-])c1,inactive: 9.19%
